Data as given in US20030232325A1 (MOUNT SINAI SCHOOL OF MEDICINE OF NEW YORK UNIVERSITY, published 2003).

Biological target: NS1 protein of influenza A virus synthesized in vitro from pcDNA3-NS1 (coupled transcription/transla (influenza A virus))
Assay: glutathione Sepharose pull-down of in vitro translated 35S-NS1

B1: GST protein (glutathione-S-transferase expressed from pGEX-5X-1) (other)
chain: MSPILGYWKIKGLVQPTRLLLEYLEEKYEEHLYERDEGDKWRNKKFELGLEFPNLPYYIDGDVKLTQSMAIIRYIADKHNMLGGCPKERAEISMLEGAVLDIRYGVSRIAYSKDFETLKVDFLSKLPEMLKMFEDRLCHKTYLNGDHVTHPDFMLYDALDVVLYMDPMCLDAFPKLVCFKKRIEAIPQIDKYLKSSKYIAWPLQGWQATFGGGDHPPK
- binding result: no binding
